Results on five compounds are retold here after patent US20230174488A1 (priority 2020, published 2023).

The chains behind the UniProt entries cited, without tags or fusion partners.
UniProt P05177, whole entry: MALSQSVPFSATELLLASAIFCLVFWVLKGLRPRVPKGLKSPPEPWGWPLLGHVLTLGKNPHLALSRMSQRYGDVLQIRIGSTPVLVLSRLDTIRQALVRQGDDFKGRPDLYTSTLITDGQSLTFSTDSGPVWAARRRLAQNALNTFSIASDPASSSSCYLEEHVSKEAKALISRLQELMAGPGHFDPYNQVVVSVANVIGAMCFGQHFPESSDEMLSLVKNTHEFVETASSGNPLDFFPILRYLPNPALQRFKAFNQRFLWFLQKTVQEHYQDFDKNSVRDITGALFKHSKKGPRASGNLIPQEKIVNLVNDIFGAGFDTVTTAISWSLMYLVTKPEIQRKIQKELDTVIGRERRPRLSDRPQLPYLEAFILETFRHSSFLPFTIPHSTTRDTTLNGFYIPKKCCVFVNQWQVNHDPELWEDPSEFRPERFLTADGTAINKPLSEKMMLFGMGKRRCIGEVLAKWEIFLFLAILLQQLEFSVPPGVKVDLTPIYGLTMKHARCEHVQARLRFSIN
UniProt P11712, whole entry: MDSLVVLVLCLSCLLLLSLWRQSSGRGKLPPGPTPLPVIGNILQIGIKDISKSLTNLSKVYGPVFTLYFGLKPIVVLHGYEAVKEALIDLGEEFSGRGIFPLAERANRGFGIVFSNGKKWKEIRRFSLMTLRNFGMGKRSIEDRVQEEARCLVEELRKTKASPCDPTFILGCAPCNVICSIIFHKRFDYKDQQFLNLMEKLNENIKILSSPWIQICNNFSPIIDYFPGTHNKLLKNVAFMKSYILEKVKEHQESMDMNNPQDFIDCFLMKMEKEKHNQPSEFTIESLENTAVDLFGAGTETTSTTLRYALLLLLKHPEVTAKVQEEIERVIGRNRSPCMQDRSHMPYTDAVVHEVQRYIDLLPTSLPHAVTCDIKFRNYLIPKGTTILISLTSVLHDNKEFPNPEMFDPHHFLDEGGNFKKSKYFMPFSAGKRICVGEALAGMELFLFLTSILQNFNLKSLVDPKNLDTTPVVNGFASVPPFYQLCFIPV
UniProt P08684, whole entry: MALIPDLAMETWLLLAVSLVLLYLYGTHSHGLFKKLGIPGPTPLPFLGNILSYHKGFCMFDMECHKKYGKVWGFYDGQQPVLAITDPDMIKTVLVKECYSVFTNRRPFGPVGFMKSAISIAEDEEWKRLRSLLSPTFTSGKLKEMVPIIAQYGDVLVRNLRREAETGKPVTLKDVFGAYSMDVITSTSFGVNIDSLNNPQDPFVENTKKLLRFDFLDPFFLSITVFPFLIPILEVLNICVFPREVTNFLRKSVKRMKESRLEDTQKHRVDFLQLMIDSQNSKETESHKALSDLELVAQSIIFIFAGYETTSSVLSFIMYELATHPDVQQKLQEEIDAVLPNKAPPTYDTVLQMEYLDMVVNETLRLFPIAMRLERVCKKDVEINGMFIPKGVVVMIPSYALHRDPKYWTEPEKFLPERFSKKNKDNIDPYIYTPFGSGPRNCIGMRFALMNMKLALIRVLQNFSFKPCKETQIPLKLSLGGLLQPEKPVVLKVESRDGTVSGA
UniProt P33261, whole entry: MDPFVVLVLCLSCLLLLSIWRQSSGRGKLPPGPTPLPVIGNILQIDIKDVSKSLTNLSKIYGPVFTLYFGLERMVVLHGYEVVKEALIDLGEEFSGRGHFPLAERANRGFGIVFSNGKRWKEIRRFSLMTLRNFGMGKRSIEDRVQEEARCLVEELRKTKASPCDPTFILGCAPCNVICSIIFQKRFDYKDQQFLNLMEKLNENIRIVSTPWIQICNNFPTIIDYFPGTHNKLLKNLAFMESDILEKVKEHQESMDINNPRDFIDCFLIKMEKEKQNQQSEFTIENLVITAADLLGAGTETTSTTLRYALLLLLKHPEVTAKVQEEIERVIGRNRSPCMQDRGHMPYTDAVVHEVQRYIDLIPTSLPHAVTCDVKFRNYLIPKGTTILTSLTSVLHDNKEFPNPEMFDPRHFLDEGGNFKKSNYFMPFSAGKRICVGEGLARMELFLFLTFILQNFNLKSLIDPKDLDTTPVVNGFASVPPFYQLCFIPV
UniProt P10635, whole entry: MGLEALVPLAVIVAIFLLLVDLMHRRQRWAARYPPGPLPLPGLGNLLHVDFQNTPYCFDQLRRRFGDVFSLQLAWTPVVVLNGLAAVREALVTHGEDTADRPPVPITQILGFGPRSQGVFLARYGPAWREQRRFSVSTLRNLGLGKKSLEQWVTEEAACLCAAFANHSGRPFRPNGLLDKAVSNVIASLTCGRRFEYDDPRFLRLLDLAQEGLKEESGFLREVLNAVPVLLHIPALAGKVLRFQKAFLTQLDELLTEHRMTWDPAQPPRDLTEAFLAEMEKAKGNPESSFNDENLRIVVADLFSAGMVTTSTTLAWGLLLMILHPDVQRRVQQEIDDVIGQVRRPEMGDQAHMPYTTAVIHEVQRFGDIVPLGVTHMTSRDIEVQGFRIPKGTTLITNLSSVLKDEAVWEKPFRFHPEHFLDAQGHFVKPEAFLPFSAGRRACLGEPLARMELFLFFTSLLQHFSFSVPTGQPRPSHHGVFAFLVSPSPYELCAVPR

The target of one data set is SARS-CoV-2 M^PRO (Severe acute respiratory syndrome coronavirus 2, UniProt P0DTD1). Particulars: In vitro potency data, 30 min pre-incubation, 25 nM M^pro, 25 µM substrate.
The target of the next data set is CYP 1A2 (Homo sapiens, UniProt P05177). In words: CYP inhibition assay, 1A2. As to conditions: read-out: CYP P450 isoform, µM 1A2; human liver microsomes, phenacetin substrate.
Data set [1] is described as follows: Microsomal stability, human liver microsomes. It counts as in vitro ADME.
A further data set concerns the target CYP 2C9 (Homo sapiens, UniProt P11712). As to conditions: read-out: CYP P450 isoform, µM 2C9; human liver microsomes, diclofenac substrate.
A short description of another data set: Plasma stability, mice. It counts as in vitro ADME. Particulars: 37° C., 2 µM.
A further data set deals with CYP 3A4 (Homo sapiens, UniProt P08684). Kind of data set: CYP inhibition assay, 3A4. As to conditions: read-out: CYP P450 isoform, µM 3A4; human liver microsomes, midazolam substrate.
A further data set deals with CYP 2C19 (Homo sapiens, UniProt P33261). Kind of data set: CYP inhibition assay, 2C19. Particulars: read-out: CYP P450 isoform, µM 2C19; human liver microsomes, S-mephenytoin substrate.
A further data set can be described thus: Plasma stability, human. Particulars: 37° C., 2 µM. It counts as in vitro ADME.
Data set [2] in a line: Plasma protein binding, mice.
Another data set concerns the target CYP 2D6 (Homo sapiens, UniProt P10635). Kind of data set: CYP inhibition assay, 2D6. As to conditions: read-out: CYP P450 isoform, µM 2D6; human liver microsomes, dextromethorphan substrate.
The next data set is described as follows: PAMPA permeability assay. Particulars: pH 7.40, 4 h. It counts as in vitro ADME.
Data set [3] is described as follows: Plasma protein binding, human.
Data set [4] in a line: Kinetic solubility in water.
For a further data set, the system named is Caco-2 cells. Kind of data set: Caco-2 permeability. It counts as in vitro ADME.

Molecules are shown by their SMILES. Read-outs that look alike come from different tables or passages of the source.

Turning to `O=C(NC1CCC(F)(F)CC1)C(c1cncnc1)N(C(=O)[C@H]1CO1)c1ccc(-c2cnco2)cc1` (some centres unmarked) [INSCoV-600R(1)], the IC50 against SARS-CoV-2 M^PRO turned out to be 16700 nM.

`O=C(N[C@H]1CCC(F)(F)C1)[C@H](c1cncnc1)N(C(=O)CCl)c1ccc(-c2cnco2)cc1` registered an IC50 against SARS-CoV-2 M^PRO of 310 nM.

In the case of `O=C(N[C@H]1CCOC1)C(c1cnccn1)N(C(=O)CCl)c1ccc(-c2ccno2)cc1` (single isomer, unassigned), the IC50 came out at 38.6 µM on CYP 1A2; 20.7 µM on CYP 2C9; 1.57 µM at CYP 3A4; 17.3 µM on CYP 2C19; 16.2 µM on CYP 2D6; 39 nM at SARS-CoV-2 M^PRO (listed as INSCoV-601Q(IA)). For the same compound, the IC50 against SARS-CoV-2 M^PRO (listed as INSCoV-601Q(lB)) was determined as 71 nM. Also, the “MMS, HLM, CLint(mic), (µL/min/mg)” value in data set [1] is given as 178,6 µL/min/mg. Besides, in “Plasma stability, mice”, the “Plasma stability, mice, T½” value stood at 6.9 min. For the same compound, the “Plasma stability, human, T½” value in the data set “Plasma stability, human” is recorded as 11.6 min. Also, the “PPB, mice, % Recovery” value in [2] is “NA/NA/3.1%”. In addition, the “PAMPA, Mean Pe” value in the data set “PAMPA permeability assay” came to 0.0708 ×10⁻⁶ cm/s. Besides, the “PPB, human, % Recovery” value in data set [3] is on record as “NA/NA/3.5%”. For the same compound, the “Kinetic solubility in water” value in [4] is 114 µM. Besides, the efflux ratio in the data set on Caco-2 cells was determined as 56.3. In addition, the “Caco-2, Mean Papp, (10-^6 cm/s), A to B” value in the data set with Caco-2 cells (A to B, 2.00 µM, pH 7.40) is 0.0610 10-^6 cm/s.

In the case of `O=C(N[C@H]1CCC(F)(F)C1)[C@@H](c1cncnc1)N(C(=O)CCl)c1ccc(-c2cncs2)cc1`, on SARS-CoV-2 M^PRO, the IC50 was found to be 60 nM.

As for `O=C(NC1CCC(F)(F)CC1)C(c1cncnc1)N(C(=O)CCl)c1ccc(-c2cnc[nH]2)cc1` (centres unmarked), the IC50 at SARS-CoV-2 M^PRO was found to be 1180 nM.
